Patent publication US6545007B2, “Methods for inhibiting the transmission of HIV using topically applied substituted 6-benzyl-4-oxopyrimidines” (Idenix (Cayman) Limited, priority 2000, dated 2003)

These compounds were tested on HIV-1 (IIIB strain). Details: selectivity index (CC50/EC50).
Assay type: cell-based
Method: Compounds. Compounds were solubilized in DMSO at 200 mM and then diluted into culture medium.
Cells and viruses. MT-4, C8166,H9/IIIB and CEM cells were grown at 37° C. in a 5% CO2 atmosphere in RPMI 1640 medium, supplemented with 10% fetal calf serum (FCS), 100 IU/mL penicillin and 100 μg/mL streptomycin. Cell cultures were checked periodically for the absence of mycoplasma contamination with a MycoTect Kit (Gibco). Human immunodeficiency virus type-I (HIV-1, IIIB strain) was obtained from supernatants of persistently infected H9/IIIB cells.
HIV Titration. Titration of HIV was performed in C8166 cells by the standard limiting dilution method (dilution 1:2, four replica wells per dilution) in 96-well plates. The infectious virus titre was determined by light microscope scoring of cytopathicity after 4 days of incubation and the virus titres were expressed as CCID50/mL.
Anti-HIV Assays. Activity of the compounds against HIV-1 and HIV-2 multiplication in acutely infected cells was based on the inhibition of virus-induced cytopathicity in MT-4 and C8166 cells, respectively. Briefly, 50 μL of culture medium containing 1×10^4 cells were added to each well of flat-bottom microtiter trays containing 50 μl of culture medium with or without various concentrations of the test compounds. Then 20 μL of an HIV suspension containing 100 CCID50 were added. After a 4-day incubation at 37° C., the number of viable cells was determined by the 3-(4,5-dimethylthiazol-[…])-2,5-diphenyltetrazolium bromide (MTT) method. Cytotoxicity of the compounds was evaluated in parallel with their antiviral activity. It was based on the viability of mock-infected cells, as monitored by the MTT method.
`Cc1c(C(C)c2c(F)cccc2F)nc(SC2CCCC2)[nH]c1=O` (single isomer, unassigned) [MC 1047+] was tested, and the SI was >100,000. `Cc1c(C(C)c2c(F)cccc2F)nc(SC2CCCC2)[nH]c1=O` (single isomer, unassigned) [MC 1047−] was tested, and the SI was >286. `Cc1c(C(C)c2c(F)cccc2F)nc(SC(C)C)[nH]c1=O` (stereo not drawn) [MC 1137] was tested, and the SI was 28,571. `CSCSc1nc(Cc2ccccc2)cc(=O)[nH]1` [MC 1140] was tested, and the SI was >10. In the case of `CSCSc1nc(Cc2c(F)cccc2F)c(C(C)C)c(=O)[nH]1` [MC 1145, 6-(2,6-Difluorophenyhnethyl)-3,4-dihydro-5-(1-methylethyl)-2-(methylthiomethyl) thiopyrimidin-4-(3H)-one], the SI is reported as 2,000. In the case of `Cc1c(C(C)c2c(F)cccc2F)nc(SCC(C)C)[nH]c1=O` (stereo not drawn) [MC 1153], the SI is reported as >20,000. `CCc1c(Cc2c(F)cccc2F)nc(SCSC)[nH]c1=O` [MC 1157] showed an SI of 454. `CSCSc1nc(Cc2c(F)cccc2F)cc(=O)[nH]1` [MC 1161, 6-(2,6-Difluorophenyhnethyl)-3,4-dihydro-2-(methylthiomethyl)thiopyrimidin-4-(3H)-one] was tested, and the SI was >250. With `CSCSc1nc(Cc2c(F)cccc2F)c(C)c(=O)[nH]1` [MC 1162, 6-(2,6-Difluorophenylmethyl)-3,4-dihydro-5-methyl-2-(methylthiomethyl)thiopyrimidin-4(3H)-one] the SI was 250. `CNc1nc(C(C)c2c(F)cccc2F)c(C)c(=O)[nH]1` (stereo not drawn) [MC 1170] was tested, and the SI was >6,666. In the case of `Cc1c(C(C)c2c(F)cccc2F)nc(SC2CCCCC2)[nH]c1=O` (stereo not drawn) [MC 1174], the SI is reported as >11,111. For `CCCCSc1nc(C(C)c2c(F)cccc2F)c(C)c(=O)[nH]1` (stereo not drawn) [MC 1175], the SI was 14,000. With `CNc1nc(C(C)c2c(F)cccc2F)cc(=O)[nH]1` (stereo not drawn) [MC 1178] the SI was 964. For `CC(c1cc(=O)[nH]c(NC2CCCCC2)n1)c1c(F)cccc1F` (stereo not drawn) [MC 1180], the SI was 2,545. In the case of `Cc1c(C(C)c2c(F)cccc2F)nc(NC2CCCCC2)[nH]c1=O` (stereo not drawn) [MC 1181], the SI is reported as 2,231. For `CN(C)c1nc(Cc2c(F)cccc2F)cc(=O)[nH]1` [MC 1182, 6-(2,6-Difluorophenylmethyl)-3,4-dihydro-2-N,N-dimethylaminopyrimidin-4-(3H)-one], the SI was >4,000. With `CN1CCN(c2nc(Cc3c(F)cccc3F)cc(=O)[nH]2)CC1` [MC 1183] the SI was >28. For `CCCCNc1nc(Cc2c(F)cccc2F)c(C)c(=O)[nH]1` [MC 1185], the SI was >10,000. With `CCCCNc1nc(C(C)c2c(F)cccc2F)c(C)c(=O)[nH]1` (stereo not drawn) [MC 1187] the SI was 8,300. In the case of `O=c1cc(Cc2c(F)cccc2F)nc(N2CCOCC2)[nH]1` [MC 1188], the SI is reported as >333. `CCCCNc1nc(C(C)c2c(F)cccc2F)cc(=O)[nH]1` (stereo not drawn) [MC 1189] was tested, and the SI was 1,730. With `CCCNc1nc(C(C)c2c(F)cccc2F)cc(=O)[nH]1` (stereo not drawn) [MC 1190] the SI was 5,150. `CC(C)Nc1nc(C(C)c2c(F)cccc2F)cc(=O)[nH]1` (stereo not drawn) [MC 1191] was tested, and the SI was 3,830. For `CCC(C)Nc1nc(C(C)c2c(F)cccc2F)cc(=O)[nH]1` (stereo not drawn) [MC 1192], the SI was 2,150. In the case of `O=c1cc(Cc2c(F)cccc2F)nc(N2CCSCC2)[nH]1` [MC 1193], the SI is reported as >4,000. With `O=c1cc(Cc2c(F)cccc2F)nc(N2CCCCC2)[nH]1` [MC 1194] the SI was >10,000. In the case of `Cc1c(Cc2c(F)cccc2F)nc(N(C)C)[nH]c1=O` [MC 1195], the SI is reported as >10,000. In the case of `O=c1cc(Cc2c(F)cccc2F)nc(N2CCCC2)[nH]1` [MC 1196], the SI is reported as >95. `CCN(CC)c1nc(Cc2c(F)cccc2F)cc(=O)[nH]1` [MC 1202] was tested, and the SI was >769. In the case of `Cc1c(Cc2c(F)cccc2F)nc(N2CCN(C)CC2)[nH]c1=O` [MC 1203], the SI is reported as >555. `CCCN(CCC)c1nc(Cc2c(F)cccc2F)cc(=O)[nH]1` [MC 1204] was tested, and the SI was >53. For `Cc1c(Cc2c(F)cccc2F)nc(N2CCOCC2)[nH]c1=O` [MC 1205], the SI was >4,255. With `Cc1c(Cc2c(F)cccc2F)nc(N2CCSCC2)[nH]c1=O` [MC 1206] the SI was >2,222.
